Results taken from patent US7968297B2, “Method for identification, isolation and production of antigens to a specific pathogen” (Intercell AG, priority 2001, dated 2011).

Tests used:
[1] = test system: antibodies in human serum; experiment: Bacterial surface display library screening by MACS with biotinylated human serum; format: binding
[2] = test system: purified IgGs from human sera; experiment: Ribosome display screening with purified human IgGs; format: binding; details: for No. of selected clones per ORF and screen: screen D: ribosome display, LSA250/1 library with IC sera (1686); for Location of identified Immunogenic region: ORFs selected by ribosome display only (screen D); for No. of selected clones per ORF and screen: D: Ribosome display: D, LSE150 in pMAL4.31 with P2 (1235)
[3] = screen A: LSA250/1 library in fhuA with patient sera 1 (655)
[4] = screen C: LSA250/1 library in fhuA with IC sera 1 (571)
[5] = screen F: LSA50/6 library in lamB with patient sera P1 (1105)
[6] = screen E: LSA50/6 library in lamB with IC sera 2 (454)
[7] = screen H: LSA250/1 library in fhuA with patient sera 1 (IgA, 708)

SdrC [compound 0093]
No. of selected clones per ORF and screen [1, 3]: 1 | No. of selected clones per ORF and screen [1, 4]: 1 | No. of selected clones per ORF and screen [1, 5]: 6 | No. of selected clones per ORF and screen ([1]; screen G: LSA50/6 library in lamb with IC sera 1 (471)): G: 2 | No. of selected clones per ORF and screen [2]: 5

Clumping factor B [compound 2344]
No. of selected clones per ORF and screen [1, 6]: 1 | No. of selected clones per ORF and screen [1, 5]: 3 | No. of selected clones per ORF and screen [1, 7]: 4 | No. of selected clones per ORF and screen [2]: 9

Clumping factor A [compound 0358]
No. of selected clones per ORF and screen [1, 4]: 1 | No. of selected clones per ORF and screen [1, 6]: E: 1 | No. of selected clones per ORF and screen [2]: 2

Fnbp [compound 2186]
No. of selected clones per ORF and screen [1, 3]: A: 4, C: 4, | No. of selected clones per ORF and screen [1, 4]: A: 4, C: 4, | No. of selected clones per ORF and screen [1, 6]: 2 | No. of selected clones per ORF and screen [2]: 5

SrpA [compound 2378]
No. of selected clones per ORF and screen [1, 4]: 1 | No. of selected clones per ORF and screen [1, 5]: F: 4, | No. of selected clones per ORF and screen [1, 7]: H: 11 | No. of selected clones per ORF and screen [2]: 7

B1: ORF0201 (protein, listed as Staphylococcus epidermidis)
chain: MTKKKRLSPSEWLLKQSKRHKRKNTLYTAIVLLVALVLLIFAVKSIQVEPVKSDTRDKDSIRITYLGNVTLNKHIRQTNLNDVFKGIQDTLDHSDFSTGSLIVNDFSRNQKDNINKNIENIMFLRKHNVKSVNLINESMDNIQATAMMRKIDSQAGYNFLTGNGSNPINSKTVQQDIKGKKIANVSFTDIESNYTNSLKNTTSISLDPAIFYPLIKKLKENNDYVVVNVDWGIPNERNVTTRQKEYAHALANAGADVIIGHNTVIQKVENYKRTPIFYSLGNTTSDNFLSKNQKGMIVQQDWKGSHNQFHITPIQSKDGKISKDNMNKMDHIRFKNNIKDKSIDLKSDQNGGYTFEY
Location of identified Immunogenic region [2]: aa 11-53 | No. of selected clones per ORF and screen: D [2]: D: 9

B2: Hyaluronate lyase (protein, UniProt Q59801 41-807, looked up)
Hyaluronate lyase: DTNVQTPDYEKLRNTWLDVNYGYDKYDENNPDMKKKFDATEKEATNLLKEMKTESGRKYLWSGAETLETNSSHMTRTYRNIEKIAEAMRNPKTTLNTDENKKKVKDALEWLHKNAYGKEPDKKVKELSENFTKTTGKNTNLNWWDYEIGTPKSLTNTLILLNDQFSNEEKKKFTAPIKTFAPDSDKILSSVGKAELAKGGNLVDISKVKLLECIIEEDKDMMKKSIDSFNKVFTYVQDSATGKERNGFYKDGSYIDHQDVPYTGAYGVVLLEGISQMMPMIKETPFNDKTQNDTTLKSWIDDGFMPLIYKGEMMDLSRGRAISRENETSHSASATVMKSLLRLSDAMDDSTKAKYKKIVKSSVESDSSYKQNDYLNSYSDIDKMKSLMTDNSISKNGLTQQLKIYNDMDRVTYHNKDLDFAFGLSMTSKNVARYESINGENLKGWHTGAGMSYLYNSDVKHYHDNFWVTADMKRLSGTTTLDNEILKDTDDKKSSKTFVGGTKVDDQHASIGMDFENQDKTLTAKKSYFILNDKIVFLGTGIKSTDSSKNPVTTIENRKANGYTLYTDDKQTTNSDNQENNSVFLESTDTKKNIGYHFLNKPKITVKKESHTGKWKEINKSQKDTQKTDEYYEVTQKHSNSDNKYGYVLYPGLSKDVFKTKKDEVTVVKQEDDFHVVKDNESVWAGVNYSNSTQTFDINNTKVEVKAKGMFILKKKDDNTYECSFYNPESTNSASDIESKISMTGYSITNKNTSTSNESGVHFELTK
notes: S. aureus antigenic protein
No. of selected clones per ORF and screen [1, 5]: 2 | No. of selected clones per ORF and screen [2]: 5

B3: ORF2861 (protein, listed as Staphylococcus epidermidis)
chain: MKDNKMLFIIFMIGTFTVGMAEYVVTGLLTQIADDMKVSISSAGLLISVYAISVALIGPLMRIITLKVHAHRLLPILVAIFIISNLVGMLAPNFNVLLLSRLMSAAMHAPFFGVCMSVAATVAPPAKKTQAIALVQAGLTIAVMLGVPFGSFLGGFANWRVVFGFMIVLAIITMLGMIKFVPNVSLSAEANISKELTVFKNPHILIVIAIIVFGYSGVFTTYTFMEPMIRDFSPFKIVGLTVCLFMFGLGGVIGNLITGNVPEDKLTKNLYLTFLLLFVTIILFVTVIQNSILALIICFLFGFGTFGTTPLLNSKIILSGKEAPLLASTLAASIFNVANFLGAIIGSILLSIGLPYIQITLISGGIIVLGMLLNLVNQLYEKKHITFNEYS
Location of identified Immunogenic region [2]: aa 137-185 | No. of selected clones per ORF and screen: D [2]: D: 11

B4: ORF0005 (protein, listed as Staphylococcus epidermidis)
chain: MKQFLNITQRKFIEWLIILSIFIVSIPNKWTLMISIALSLLLLKRGALGVVQLIILYMLRSQIYTPYDTQEMAHYIVSMKYILIYVIGVFFLFKYVKHWIRNEMILRFIKSTMILMLLYIIMSLVVSNDPIESILKLLNFFIPLILIVMYVSLIKKIKNLINWINQFITLVIAFTFLFIVIAPKSYLIDEESLRSVFKDAHSFAVILAMGLVLYMVTIIKQQDYDVFNLLLLNIGMIELYLSNSRHIFISVILCLMLLLPLSHIKKRIKHPIIGAMILMAIAIINQPYIYHLFIKLILKGKNSQEVFMPSDMNIKAIDYALTEHPFLGSGFGIPMIKASSEIQYFNVATSNIIFGMIIFTGIIGLTLCTIYMLHMVLLVTFPMSITILLFLITIFVNMDYIILFDSVGLGILCYIFWGIYLKEGMYQYNNGQW
Location of identified Immunogenic region [2]: aa 105-128 | No. of selected clones per ORF and screen: D [2]: D: 3

B5: ORF2493 (protein, listed as Staphylococcus epidermidis)
chain: MKIRLTFIILAILSTIGLVLVLAKYPTGPHTINYNEPYTVLIAITTIVIMALPALILGIFNHLACRIISAILQISALMMWGFLVIISLIMGQIVIMLMASLTILALLVSSIVTLSVHPSTSDKIN
Location of identified Immunogenic region [2]: aa 69-113 | No. of selected clones per ORF and screen: D [2]: D: 6

B6: ORF0101 (protein, listed as Staphylococcus epidermidis)
chain: MKFCPHCGNPIKKEQSFCNKCGKHLKTSTQRKSENQIEHMREQQSYISREERQHHDSTFYKEQKHTGWLIVLSIIFVLLIAALLYGAYYAYNHYISDEQSHQTTESQQSNESDQNRDQSTGPSIDVFSDDFDQGYMKSASTSGYRGVYNGMTREEVEDKFGTSNGSVESLKWSYETYGDLAVAYDDNEVVSVGVAPNHISEDQFLSMYNEPDDRNSSQLIYDSNKDNDFSVLANVKNGDVTVIENVNQI
Location of identified Immunogenic region [2]: aa 26-109 | No. of selected clones per ORF and screen: D [2]: D: 18

B7: ORF2764 (protein, listed as Staphylococcus epidermidis)
chain: MIVLRRLFQDRGAIFAIAIITIYVVLGVLAPLITFYEPNHIDTANKFAGISWSHWLGTDHLGRDVLTRIIYAIRPSLLYVFVALIISVVIGAILGFISGYFPGYIDAIIMRICDVMLAFPSYVVTLALITLFGMGVENIIIAFILTRWAWFCRVIRTSVMQYIEADHVKFAKVIGMNDLTIIRKHILPLTFTDIAIIASSSMCSMILQMSGFSFLGLGVKAPTAEWGMMLNEARKVMFTHPGMMMTTGVAIVIIVMAFNFLSDALQMAIDPRMSAKEKRLALKKGVKARDTA
Location of identified Immunogenic region [2]: aa 6-41 | No. of selected clones per ORF and screen: D [2]: D: 4
